The values that follow come from patent publication US20130084301A1 (published 2013).

Assay [1] has as its target HCV 1a E2 with alanine substitution at 442 (hepatitis C virus genotype 1a, H77c, UniProt P27958 384-746).
Assay [2] addresses HCV 1a E2 with alanine substitution at 428 (hepatitis C virus genotype 1a, H77c, UniProt P27958 384-746).
Assay [3] concerns the target HCV 1a E2 with alanine substitution at 446 (hepatitis C virus genotype 1a, H77c, UniProt P27958 384-746).
The target of assay [4] is HCV 1a E2 with alanine substitution at 437 (hepatitis C virus genotype 1a, H77c, UniProt P27958 384-746).
In assay [5] the target is HCV 1a E2 with alanine substitution at 441 (hepatitis C virus genotype 1a, H77c, UniProt P27958 384-746).
Assay [6] concerns the target HCV 1a E2 with alanine substitution at 616 (hepatitis C virus genotype 1a, H77c, UniProt P27958 384-746).
Assay [7] has as its target HCV 1a E2 with alanine substitution at 420 (hepatitis C virus genotype 1a, H77c, UniProt P27958 384-746).
Assay [8] deals with HCV 1a E2 with alanine substitution at 443 (hepatitis C virus genotype 1a, H77c, UniProt P27958 384-746).
For assay [9], the target named is HCV 1a E2 with alanine substitution at 429 (hepatitis C virus genotype 1a, H77c, UniProt P27958 384-746).
Assay [10] concerns the target HCV 1a E2 with alanine substitution at 613 (hepatitis C virus genotype 1a, H77c, UniProt P27958 384-746).

B1: CD81 large extracellular loop fused to glutathione S-transferase (receptor)
chain: FVNKDQIAKDVKQFYDQALQQAVVDDDANNAKAVVKTFHETLDCCGSSTLTALTTSVLKNNLCPSGSNIISNLFKEDCHQKIDDLFSGK
For B1, the binding result in [1] is given as “no binding”; in [2], “binds”; in assay [3], “binds”; in assay [4] it was “no binding”; in assay [5], “no binding”; in assay [6] it was “no binding”. For the same molecule, the binding result in [7] is listed as “no binding”; in assay [8] it was “binds”; in assay [9], “no binding”; in assay [10], “no binding”.
